Laboratory results: paper PMC7576996, “Antiparasitic Behavior of Trifluoromethylated Pyrazole 2-Amino-1,3,4-thiadiazole Hybrids and Their Analogues: Synthesis and Structure-Activity Relationship” (Frontiers in Pharmacology, 2020)

System: epimastigote form of Trypanosoma cruzi
Assay: Antiproliferative assay, epimastigote form of Trypanosoma cruzi (XTT, 96 h)
Format: cell-based
Details: for fold less potent for T. cruzi compared to L. amazonensis: ratio of IC50 values
Method: All the novel trifluoromethylated pyrazoles derivatives 2a–f, 3a–f, and 4a–f were evaluated against the promastigote form of L. amazonensis and the epimastigote form of T. cruzi. The results are reported as the concentration causing a 50% inhibition in cell growth (IC50). Additionally, the toxicity of compounds was evaluated against two different cell lines: epithelial cell LLCMK2 and macrophages J774A1. The antiproliferative and cytotoxic activities are shown in Table 2 , as well as the calculated selectivity index (SI).
2.4. Antiproliferative activity
Promastigotes forms of Leishmania amazonensis (strain WHOM/ BR/75/JOSEFA) were
cultured in Warren medium (brain heart infusion, hemin, and folic acid; pH 7.4) supplemented with
10% fetal bovine serum (FBS) at 25 °C. Epimastigote forms of Trypanosoma cruzi (Y strain) were
cultured in LIT medium (liver infusion tryptose; hemim, and folic acid; pH 7.4) supplemented with
Cytotoxicity activity was determined in LLCMK2 (epithelial cells of kidney of Macaca
mulatta) cells and J774A1 macrophages. LLCMK2 (epithelial cells of kidney of Macaca mulatta) cells
were cultured in Dulbecco’s modified Eagle’s medium (DMEM, pH 7.2) supplemented with 10% FBS
at 37 °C in a 5% CO2 atmosphere. J774A1 macrophages were cultured in RPMI-1640 (pH 7.2) medium
supplemented with 10% FBS at 37 °C in a 5% CO2 atmosphere.
2.4.2. Dilution of compounds
Stock solutions of the compounds were prepared in DMSO and then diluted in the respective
medium. The groups (controls and treated) were tested with DMSO concentrations below 1%, with
2.4.3. Antiproliferative assay
Promastigote forms (1 × 10^6 parasites/mL) were cultured in 96-well plates in the presence and
absence of different concentrations of compounds diluted in Warren medium supplemented with 10%
FBS and incubated for 72h. Epimastigote forms (1 × 10^6 parasites/mL) were cultured in 96 -well plates
in the presence and absence of different concentrations of compounds diluted in LIT medium
supplemented with 10% FBS and incubated for 96h. After treatment, the parasites were incu bated with
a solution of 2,3 -bis (2 -methoxy -4-nitro -5-sulfophenyl) -2H-tetrazolium -5-carboxanilide (XTT; 0.5
mg/mL) and phenazine methanesulfonate activator (PMS; 0.06 mg/mL) in PBS for 4h. Then, the
absorbance was read in a microplate reader (Bio Tek - Power Wave XS) at 450 nm. The percentage of
viable parasites was calculated in relation to the control in order to determine the concentration that
inhibits 50% of the protozoa (IC 50).
2.4.4. Cytotoxicity assay
LLCMK2 cells (2.5 × 10^5 cells/mL) suspension was prepared in DMEM medium supplemented
with 10% FBS and added to 96-well plates. Then, the plates were incubated at 37 °C in a […]
mg/mL) for 4h. Then, DMSO was added for solubilization of the formazan and analyzed with a reading

CSC(N)=NN=Cc1c(C(F)(F)F)nn(-c2ccccc2)c1-c1ccc(Br)cc1 [3d]
fold less potent for T. cruzi compared to L. amazonensis: about 2 fold

NC(=S)NN=Cc1c(C(F)(F)F)nn(-c2ccccc2)c1-c1ccc(Br)cc1 [2d, 5-(4-bromophenyl)-4-[(2-carbamothioyl-hydrazinylidene)methyl]-3-trifluoromethyl-1-phenyl-1H-pyrazole]
fold less potent for T. cruzi compared to L. amazonensis: about 2 fold

O=Cc1c(C(F)(F)F)nn(-c2ccccc2)c1-c1ccc([N+](=O)[O-])cc1 [compound 5, 3-trifluoromethyl-4-formyl-5-(4-nitrophenyl)-1-phenyl-1H-pyrazole]
fold decrease in activity against T. cruzi (formyl derivative compared to 2a): 2 fold

Nc1nnc(-c2c(C(F)(F)F)nn(-c3ccccc3)c2-c2ccc(Br)cc2)s1 [4d, 4-[(2-amino)-1,3,4-thiadiazo-5-yl]-5-(4-Bromophenyl)-3-trifluoromethyl-1-phenyl-1H-pyrazole]
fold less potent for T. cruzi compared to L. amazonensis: about 2 fold
